The target of this series is RBPJ IV/AA I187A,V189A (UniProt P31266). Briefly: EMSA. To be noted: slightly reduced vs wt; 10 mM Tris-HCl pH 7.5, 100 mM NaCl, 0.1 mM EDTA, 0.5 mM DTT, 4% glycerol, 10 ng poly(dI-dC), ~0.5 ng 32P-oligo, 2 or 4 ul reticulocyte lysate; temperature not stated; protein translated in vitro; protein details: Flag; label: 32P. In general terms: A gel shift assay detects complexes by their altered migration in electrophoresis.

Protein sequences, listed by entry. Tags and fused reporters are not part of them.
UniProt P31266, whole entry I187A/V189A: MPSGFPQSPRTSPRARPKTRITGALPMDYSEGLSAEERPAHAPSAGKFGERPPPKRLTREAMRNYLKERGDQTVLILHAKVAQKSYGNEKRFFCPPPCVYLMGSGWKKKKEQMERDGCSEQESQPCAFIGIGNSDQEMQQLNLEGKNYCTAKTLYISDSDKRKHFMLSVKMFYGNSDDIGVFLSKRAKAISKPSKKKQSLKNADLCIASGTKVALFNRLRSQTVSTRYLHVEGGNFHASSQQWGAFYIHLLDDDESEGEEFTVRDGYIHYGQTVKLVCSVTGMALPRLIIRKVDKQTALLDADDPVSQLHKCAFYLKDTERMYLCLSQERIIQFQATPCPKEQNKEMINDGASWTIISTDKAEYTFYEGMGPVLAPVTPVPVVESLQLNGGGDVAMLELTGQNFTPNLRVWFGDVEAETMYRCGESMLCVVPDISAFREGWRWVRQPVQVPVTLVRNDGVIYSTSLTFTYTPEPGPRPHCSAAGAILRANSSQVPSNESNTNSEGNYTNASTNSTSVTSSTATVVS

The values below come from PMC8325870.

For at least one entry, the source does not settle the construct or the ends of the probe. The comparison behind a weaker result is the experiment's own reference, which may not be listed here.

With “CCTGGAACTATTTTCCCACGGTGCCCTTCCGCCCATTTTCCCACGAGTCG / CTCGCGACTCGTGGGAAAATGGGCGGAAGGGCACCGTGGGAAAATAGTTC [FO-233F/FO-233R (EBV TP-1 promoter, two RBPJ sites)]”, the binding result is recorded as “binds more weakly”.
